Values from PubChem BioAssay AID504761 (Drosophila RNAi Screening Center, 2011)
Test: 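Fly genes whose silencing reduces dengue virus type 2 infection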 (primary screen). Cell system: D.Mel-2 cells from Drosophila. Reagent: long dsRNA against Drosophila genes. Treatment: infection with dengue virus type 2; dose and infection time not stated. Detection: 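Cells stained for dengue envelope protein and imaged; percent of infected cells per well on duplicate plates, ranked by infection, with stained nuclei counted for cell number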. Scale: infection score: higher = more virus-infected cells; cell count: higher = more cells in the well. Active means: 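Very low infection ranking in both replicate wells (chance probability at most 0.065), then a retest showing infection dropped 1.5-fold or more at p below 0.05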. Meaning of the calls: active = confirmed: knock-down lowers infection; inactive = not picked or not confirmed.
The screen tested about 22,000 reagents; shown is an unselected part of those with a known target gene and a result. Over the whole deposit, 116 (0.52%) are marked active. 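Calls depend on retest data that are not deposited; infection was ranked per plate without normalising between plates; the unit of the infection score is not given.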 Raw values are not corrected between plates. Unmarked entries are inactive. A plus sign joins genes that one reagent is predicted to hit. Further read-outs or replicates are left out here. Not given: the amount of reagent, the time to read-out.

| target | DRSC id | infection score, replicate 1 | infection score, replicate 2 | cell count, replicate 1 |
| --- | --- | --- | --- | --- |
| VAChT (GeneID 42795) | DRSC13311 | 6.68 | 5.99 | 6006 |
| VAChT (GeneID 42795) | DRSC16608 | 2.44 | 4.27 | 5768 |
| VAChT (GeneID 42795) | DRSC23986 | 2.41 | 4.14 | 6300 |
| lmgA + lmgB | DRSC03566 | 17.1 | 2.25 | 5852 |
| lmgA + lmgB | DRSC24454 | 8.03 | 4.82 | 6390 |
| Kpc1 (GeneID 41826) | DRSC16107 | 6.88 | 20.1 | 6451 |
| Hs3st-A (GeneID 37161) | DRSC06508 | 1.83 | 1.31 | 6082 |
| Hs3st-A (GeneID 37161) | DRSC06509 | 3.45 | 4.29 | 6437 |
| Hs3st-A (GeneID 37161) | DRSC30014 | 12.4 | 15.5 | 6625 |
| Clamp (GeneID 35445) | DRSC03718 | 20.3 | 13.7 | 6491 |
| Clamp (GeneID 35445) | DRSC21682 | 0.86 | 5.14 | 6379 |
| Clamp (GeneID 35445) | DRSC29935 | 4.25 | 10.6 | 6376 |
| Elovl7 (GeneID 40943) | DRSC15452 | 5.82 | 4.75 | 6445 |
| Elovl7 (GeneID 40943) | DRSC21570 | 0.34 | 2.03 | 6210 |
| Elovl7 (GeneID 40943) | DRSC25259 | 1.83 | 9.89 | 6184 |
| CG13364 (GeneID 50364) | DRSC17898 | 10.2 | 1.21 | 3783 |
| CG13364 (GeneID 50364) | DRSC21263 | 1.34 | 0.86 | 5980 |
| CG13364 (GeneID 50364) | DRSC26743 | 5.04 | 19.4 | 5828 |
| CG10947 (GeneID 35309) | DRSC02111 | 3.22 | 3.91 | 6331 |
| CG10947 (GeneID 35309) | DRSC27404 | 15.8 | 5.1 | 6562 |
| Klp64D (GeneID 38611) | DRSC11204 | 4.73 | 2.36 | 6132 |
| CG14182 (GeneID 40181) | DRSC10181 | 5.3 | 15.2 | 6316 |
| CstF64 (GeneID 42239) | DRSC16616 | 0.93 | 6.59 | 429 |
| CstF64 (GeneID 42239) | DRSC29486 | 6.47 | – | 896 |
| RtcB (GeneID 35220) | DRSC03280 | 4.95 | 3.42 | 5518 |

Quoted from above (9 entries):
| target | DRSC id | infection score, replicate 1 | infection score, replicate 2 | cell count, replicate 1 |
| --- | --- | --- | --- | --- |
| lmgA + lmgB | DRSC03566 | 17.1 | 2.25 | 5852 |
| lmgA + lmgB | DRSC24454 | 8.03 | 4.82 | 6390 |
| Kpc1 (GeneID 41826) | DRSC16107 | 6.88 | 20.1 | 6451 |
| Hs3st-A (GeneID 37161) | DRSC06508 | 1.83 | 1.31 | 6082 |
| Hs3st-A (GeneID 37161) | DRSC06509 | 3.45 | 4.29 | 6437 |
| Hs3st-A (GeneID 37161) | DRSC30014 | 12.4 | 15.5 | 6625 |
| Clamp (GeneID 35445) | DRSC03718 | 20.3 | 13.7 | 6491 |
| Clamp (GeneID 35445) | DRSC21682 | 0.86 | 5.14 | 6379 |
| Clamp (GeneID 35445) | DRSC29935 | 4.25 | 10.6 | 6376 |

More records:
| target | DRSC id | infection score, replicate 1 | infection score, replicate 2 | cell count, replicate 1 |
| --- | --- | --- | --- | --- |
| MED31 (GeneID 40577) | DRSC23432 | 7.19 | 3.7 | 6396 |
| Ncoa6 (GeneID 33761) | DRSC23060 | 1.43 | 10.5 | 6003 |
| Ncoa6 (GeneID 33761) | DRSC25819 | 9.27 | 5.2 | 5709 |
| CG9706 (GeneID 39876) | DRSC11095 | 2.17 | 5.61 | 6685 |
| CG11997 (GeneID 41093) | DRSC14464 | 3.34 | 6.48 | 6375 |
| CG11997 (GeneID 41093) | DRSC26460 | 4.05 | 9.74 | 6377 |
| PolD2 (GeneID 38228) | DRSC08147 | 42.3 | 13.3 | 4580 |
| Taf13 (GeneID 35297) | DRSC02106 | 6.85 | 26.2 | 1853 |
| CG33217 (GeneID 2768951) | DRSC22907 | 0.55 | 18.3 | 7033 |
| CG33217 (GeneID 2768951) | DRSC28139 | 9.63 | 4.27 | 5679 |
| ppk29 (GeneID 37844) | DRSC04205 | 1.11 | 0.4 | 628 |
| tst (GeneID 42813) | DRSC14212 | 3.66 | 3.56 | 6253 |
| CG1532 (GeneID 33076) | DRSC20516 | 1.08 | 1.61 | 6108 |
| CG14294 (GeneID 42262) | DRSC14774 | 3.32 | 10.4 | 6861 |
| cpx (GeneID 64877) | DRSC11999 | 3.59 | 1.38 | 6464 |
| Prm (GeneID 39002) | DRSC08941 | 0.6 | 0.54 | 6462 |
| Prm (GeneID 39002) | DRSC08942 | 0.53 | 0.66 | 5987 |
| Prm (GeneID 39002) | DRSC11255 | 16.4 | 7.21 | 5075 |
| Prm (GeneID 39002) | DRSC26929 | 19.6 | 14.6 | 6028 |
| CG8001 (GeneID 38224) | DRSC08611 | 13 | 14.5 | 5472 |
| CG8117 (GeneID 32499) | DRSC20082 | 10 | 10.9 | 6229 |
| CG8117 (GeneID 32499) | DRSC27713 | 3.78 | 3.99 | 6560 |
| CG15894 (GeneID 31574) | DRSC18098 | 2.06 | 2.31 | 6112 |
| CG4455 (GeneID 34975) | DRSC01983 | 1.53 | 3.71 | 6726 |
| CG4455 (GeneID 34975) | DRSC21684 | 1.57 | 3.83 | 6182 |
| Eip63F-1 (GeneID 47878) | DRSC08659 | 1.29 | 5.91 | 6210 |
| Eip63F-1 (GeneID 47878) | DRSC25229 | 2.04 | 0.83 | 6027 |
| pygo (GeneID 43718) | DRSC14322 | 3.42 | 13 | 5260 |
| pygo (GeneID 43718) | DRSC25137 | 1.32 | 1.07 | 6499 |
| emp (GeneID 37999) | DRSC04019 | 0.47 | 0.15 | 6365 |
| emp (GeneID 37999) | DRSC04683 | 5.69 | 49.3 | 6375 |
| TTLL6A (GeneID 37253) | DRSC06618 | 5.33 | 0.81 | 6344 |
| TTLL6A (GeneID 37253) | DRSC24494 | 6.56 | 4.05 | 6178 |
| Nurf-38 (GeneID 37922) | DRSC04629 | 2.57 | 5.79 | 5988 |
| Nurf-38 (GeneID 37922) | DRSC26858 | 10.9 | 2.1 | 6101 |
| CG32278 + CG14963 | DRSC22203 | 3.6 | 11.1 | 6613 |
| Tbce (GeneID 35532) | DRSC04897 | 13.5 | 23.7 | 6072 |
| Csp (GeneID 40459) | DRSC11860 | 9.19 | 26.2 | 6713 |
| Ucp4A (GeneID 32764) | DRSC19996 | 0.93 | 1.8 | 6267 |
| Ucp4A (GeneID 32764) | DRSC27013 | 6.35 | 1.92 | 6235 |
| Hmg-2 (GeneID 37407) | DRSC04554 | 18.1 | 9.51 | 6016 |
| Hmg-2 (GeneID 37407) | DRSC25355 | 4.03 | 9.68 | 6942 |
| Spt7 (GeneID 32766) | DRSC19997 | 3 | 2.57 | 7089 |
| Spt7 (GeneID 32766) | DRSC24902 | 13.8 | 10.1 | 4781 |
| hrm (GeneID 35499) | DRSC04853 | 8.37 | 4.19 | 6335 |
| CG31204 (GeneID 318625) | DRSC15106 | 11.3 | 2.07 | 4626 |
| CG31204 (GeneID 318625) | DRSC28757 | – | – | 332 |
| obst-G (GeneID 39355) | DRSC11103 | 3.12 | 4.08 | 5993 |
| GAA1 (GeneID 31517) | DRSC18267 | 1.48 | 17.6 | 6071 |
